A mixed list of measured activities; the numbers were collected in NIAID ChemDB.

Shared fields: whole-cell or culture tests; agent: HIV-1

a–b is a range or a potency band. Lines come from different laboratories, so protocols vary. ECn is the concentration giving n% inhibition of infection, replication or growth. Blank or dashed fields: not listed here.

compound | changes | endpoint | cell line | method | strain or isolate | value
N#CC1=CC2C(c3ccccc3N2CCCN2CCOCC2)N(c2ccc([N+](=O)[O-])cc2)C1=O | - | EC50 | MT-4 | cytopathic effect / MTT | LAI | <1 µM
CC(C)=CCOc1cc(NC(=S)c2ccoc2C)ccc1Cl | RT-Y181C | EC50 | CEM + CEM-SS | cytopathic effect / XTT | UC38-RS (RT-Y181C) | 0.9 µM
Cc1cc(/C=C/C#N)cc(C)c1Oc1nc(NC2CCN(Cc3ccc(Br)cc3)CC2)nc2ccsc12 | NNRTI-resistant (RT K103N) | EC50 | MT-4 | MTT | IIIB | 0.0299 µM
COc1ccc(NC(=O)C2=CC3Nc4ccccc4C3N(c3ccc(OC)cc3)C2=O)cc1 | - | EC50 | MT-4 | cytopathic effect / MTT | LAI | >32 µM
COc1ccc(N(C)C(=O)C(Cc2cc(F)cc(F)c2)NC(=O)NS(=O)(=O)N[C@@H](Cc2ccccc2)C(=O)N(C)c2ccc(OC)cc2)cc1 | - | EC50 | MT-2 | luciferase | NL4-3 | 0.01 µM
CCc1nc(-c2ccc(N3C(=O)C=CC4C3c3ccccc3N4C)cc2)no1 | - | EC50 | MT-4 | cytopathic effect / MTT | LAI | 1–32 µM
COP(=O)(c1cc(C)cc(CCC#N)c1)c1c(C(N)=O)[nH]c2ccc(Cl)c(F)c12 | Y181C | EC50 | MT-4 | cytopathic effect | IIIB | 0.0028 µM
COc1ccnc2[nH]cc(C(=O)C(=O)N3C4CCCC3CN(C(=O)c3ccccc3)C4)c12 | - | EC99 | TZM-bl | luciferase | 6535 | 22 µM
CC(=O)c1c(C)nc(-c2ccccc2)nc1NC(=O)c1ccccc1 | - | EC50 | HeLa | GFP / fluorescence | C-98IN022 | 1.08 µM
Cc1cc(C#N)cc(C)c1Oc1nc(NC2CCC(NCc3ccc(O)cc3)CC2)nc2ccsc12 | NNRTI-resistant (RT L100I) | EC50 | MT-4 | MTT | IIIB | >20.1 µM
CC(C)[C@H](NC(=O)OCc1ccccn1)C(=O)N[C@@H](Cc1ccccc1)[C@@H](O)C[C@H](Cc1ccccc1)NC(=O)OCc1cccnc1 | PR-I84V | EC50 | MT-4 | p24 | NL4-3 | <0.8 µM
CN1c2ccccc2C2C1C=CC(=O)N2c1ccc(C#N)cc1 | - | EC50 | MT-4 | cytopathic effect / MTT | LAI | 1–32 µM
CC1(C)CC=C(c2cn(-c3nccc(C(=O)NC4CCC(N5CC6CCC(C5)O6)CC4)n3)c3ccc(F)c([C@H](OC(C)(C)C)C(=O)O)c23)CC1 | E170G | EC50 | MT-4 | luminescence | NL4-3 | 0.018 µM
CN(C(=O)[C@H](Cc1ccccc1)NC(=O)NS(=O)(=O)N[C@@H](Cc1ccccc1)C(=O)N(C)c1ccc2scnc2c1)c1ccc2scnc2c1 | - | EC50 | MT-2 | luciferase | NL4-3 | 0.08 µM
CC1c2nc(C(=O)NCc3ccc(F)cc3)c(O)c(=O)n2CCN1C(=O)C(=O)N(C)C | - | EC95 | MT-4 | p24 | - | <50 µM
Nc1nc(=O)n([C@H]2C=C[C@@H](CO)O2)cc1F | - | EC90 | PBMC | p24 | NL4-3 WT | 1.3 µM
O=C1Nc2ccc(F)c(F)c2[C@@](C#CC2CC2)(C(F)(F)F)N1 | RT-K103N | EC90 | - | - | - | 0.011 µM
Cc1cc(/C=C/C#N)cc(C)c1Oc1nc(NC2CCN(Cc3ccccc3C#N)CC2)nc2ccsc12 | NNRTI-resistant (RT L100I) | EC50 | MT-4 | MTT | IIIB | 0.0151 µM
N#CC1=CC2Nc3ccccc3C2N(c2ccc(F)cc2)C1=O | - | EC50 | MT-4 | cytopathic effect / MTT | LAI | >32 µM
COc1ccc(N(C)C(=O)[C@H](Cc2ccccc2)NC(=O)N[C@@H](Cc2ccccc2)C(=O)N(C)c2ccc(OC)cc2)cc1 | - | EC50 | MT-2 | luciferase | NL4-3 | 2.86 µM
CC(C)CN(C[C@@H](O)[C@H](Cc1ccccc1)NC(=O)O[C@H]1CO[C@H]2OCC[C@H]21)S(=O)(=O)c1ccc2c(c1)OCO2 | - | EC50 | PHA-PBM | p24 | ERS104pre | 0.0005 µM
CN(C)C(=O)C(=O)N1CCn2c(nc(C(=O)NCc3ccc(F)cc3)c(O)c2=O)C1 | - | EC95 | MT-4 | p24 | - | <50 µM
Cc1nc2ccccc2c(-c2cc(F)c3c(c2C)CCCO3)c1[C@H](OC(C)(C)C)C(=O)O | H171T | EC50 | MT-4 | luminescence | NL4-3 | 1.91 µM
CC(C)=CCN1Cc2cccc3[nH]c(=O)n(c23)CC1C | RT-Y181C | EC50 | CEM + CEM-SS | cytopathic effect / XTT | UC82-R (RT-Y181C) | 4.4 µM
COc1ccnc2[nH]cc(C(=O)C(=O)N3C4CC3CN(C(=O)c3ccccc3)C4)c12 | - | EC99 | TZM-bl | luciferase | PVO | >>250 µM
Cc1cc(C#N)cc(C)c1Oc1nc(NC2CCC(NCc3cccc(C(F)(F)F)c3)CC2)nc2ccsc12 | - | EC50 | MT-4 | MTT | RES056 | >707 µM
O=C1Cn2c(nc(C(=O)NCc3ccc(F)cc3)c(O)c2=O)CN1 | - | EC50 | MT-4 | p24 | - | <50 µM
COc1ccc(N(C)C(=O)[C@H](Cc2ccccc2)NC(=O)c2cncc(C(=O)N[C@@H](Cc3ccccc3)C(=O)N(C)c3ccc(OC)cc3)c2)cc1 | - | EC50 | MT-2 | luciferase | NL4-3 | 0.02 µM
O=C1Nc2ccc(Cl)cc2[C@@](/C=C/C2CC2)(C(F)(F)F)N1 | RT-V106A | EC90 | - | - | - | <0.012 µM
Cn1c2ccccc2c2c1cc(C#N)c(=O)n2-c1ccc([N+](=O)[O-])cc1 | RT-L100I K103N | EC50 | MT-4 | cytopathic effect / MTT | C | 0.08 µM
Cc1cc(/C=C/C#N)cc(C)c1Oc1nc(NC2CCN(Cc3cccc(Br)c3)CC2)nc2ccsc12 | NNRTI-resistant (RT E138K) | EC50 | MT-4 | MTT | IIIB | 0.129 µM
CCC(=O)c1ccc(F)c([C@@H]2C[C@@H]2NC(=O)Nc2ccc(C#N)cn2)c1O | - | EC50 | TZM-bl | β-galactosidase / luminescence | LAI | 0.00068 µM
O=C(NCc1ccc(F)cc1)c1nc2n(c(=O)c1O)CN1CCSC21 | - | EC50 | MT-4 | p24 | - | <50 µM
COc1ccc(NC(=O)[C@H](Cc2ccccc2)NS(=O)(=O)NC(=O)N[C@@H](Cc2ccccc2)C(=O)N(C)c2ccc(OC)cc2)cc1 | - | EC50 | MT-2 | luciferase | NL4-3 | 12.37 µM
CC1CC(C)CN(S(=O)(=O)c2ccccc2[N+](=O)[O-])C1 | - | EC50 | HeLa | GFP / fluorescence | O-MVP5180 | 0.37 µM
Cc1cc(C#N)cc(C)c1Oc1nc(NC2CCN(Cc3ccc(S(C)(=O)=O)cc3)CC2)nc2sccc12 | NNRTI-resistant (RT L100I) | EC50 | MT-4 | MTT | IIIB | 0.00785 µM
Nc1nc(NC2CC2)c2ncn([C@H]3C=C[C@@H](CO)C3)c2n1 | RT-M184V | EC90 | MT-4 | p24 | XM-M184V | 9.5 µM
CC1(C)c2nc(C(=O)NCc3ccc(F)cc3)c(O)c(=O)n2CCN1Cc1cscn1 | - | EC50 | MT-4 | p24 | - | <1 µM
CN(C(=O)[C@H](Cc1cc(F)cc(F)c1)NC(=O)c1cccc(C(=O)N[C@@H](Cc2cc(F)cc(F)c2)C(=O)N(C)c2ccc3scnc3c2)c1)c1ccc2scnc2c1 | - | EC50 | MT-2 | luciferase | NL4-3 | 0.01 µM
Cc1cc(C)cc(Cc2c(I)c(=O)[nH]c(=O)n2COCc2ccccc2)c1 | V106I | EC50 | TZM-bl | p24 / ELISA | SF33 | 0.014 µM
CCCc1cc(=O)oc2c3c(c4c(c12)OC(C)(C)CC4)O[C@H](C)[C@@H](C)C3=O | RT-Y181C | EC50 | - | cytopathic effect / XTT | - | 2.1 µM
CN(C(=O)[C@H](Cc1cc(F)cc(F)c1)NC(=O)c1ccc(F)c(C(=O)N[C@@H](Cc2cc(F)cc(F)c2)C(=O)N(C)c2ccc3scnc3c2)c1)c1ccc2scnc2c1 | - | EC50 | MT-2 | luciferase | NL4-3 | 0.01 µM
N#Cc1cc2[nH]c3ccccc3c2n(-c2ccc([N+](=O)[O-])cc2)c1=O | RT-L100I K103N | EC50 | MT-4 | cytopathic effect / MTT | D | 1 µM
CC(C)=CCOc1cc(NC(=S)c2ccsc2C)ccc1Cl | RT-Y181C | EC50 | CEM + CEM-SS | cytopathic effect / XTT | UC040-R (RT-Y181C) | 0.1 µM
Cc1ccc(N(C)C(=O)[C@H](Cc2ccccc2)NC(=O)NS(=O)(=O)N[C@@H](Cc2ccccc2)C(=O)N(C)c2ccc(C)c(Cl)c2)cc1Cl | - | EC50 | MT-2 | luciferase | NL4-3 | 3.8 µM
CN(C)CC(=O)N1CCn2c(nc(C(=O)NCc3ccc(F)cc3)c(O)c2=O)C1(C)C | - | EC50 | MT-4 | p24 | - | <1 µM

Again, the opening 5 rows:

{"compound": "N#CC1=CC2C(c3ccccc3N2CCCN2CCOCC2)N(c2ccc([N+](=O)[O-])cc2)C1=O", "endpoint": "EC50", "cell line": "MT-4", "method": "cytopathic effect / MTT", "strain or isolate": "LAI", "value": "<1 µM"}
{"compound": "CC(C)=CCOc1cc(NC(=S)c2ccoc2C)ccc1Cl", "changes": "RT-Y181C", "endpoint": "EC50", "cell line": "CEM + CEM-SS", "method": "cytopathic effect / XTT", "strain or isolate": "UC38-RS (RT-Y181C)", "value": "0.9 µM"}
{"compound": "Cc1cc(/C=C/C#N)cc(C)c1Oc1nc(NC2CCN(Cc3ccc(Br)cc3)CC2)nc2ccsc12", "changes": "NNRTI-resistant (RT K103N)", "endpoint": "EC50", "cell line": "MT-4", "method": "MTT", "strain or isolate": "IIIB", "value": "0.0299 µM"}
{"compound": "COc1ccc(NC(=O)C2=CC3Nc4ccccc4C3N(c3ccc(OC)cc3)C2=O)cc1", "endpoint": "EC50", "cell line": "MT-4", "method": "cytopathic effect / MTT", "strain or isolate": "LAI", "value": ">32 µM"}
{"compound": "COc1ccc(N(C)C(=O)C(Cc2cc(F)cc(F)c2)NC(=O)NS(=O)(=O)N[C@@H](Cc2ccccc2)C(=O)N(C)c2ccc(OC)cc2)cc1", "endpoint": "EC50", "cell line": "MT-2", "method": "luciferase", "strain or isolate": "NL4-3", "value": "0.01 µM"}